Measured values from several laboratories, pooled; numbers as filed in NIAID ChemDB.

Common to all: growth or infection tests; species: Mycobacterium tuberculosis

Percent inhibition refers to the dose given; in toxicity tests it is the harm to the cells. An empty or dashed field is not shown. ECn is the concentration giving n% inhibition of infection, replication or growth. Rows are shuffled and stem from different studies. MIC bound comes from a single tested concentration. A number after MIC or MFC names an inhibition level or a share of isolates.

structure	strain or isolate	conditions	mutations	read by	measure	cell line	dose	value
COc1ccc(OC)c(Sc2ncnc3nc[nH]c23)c1	H37Ra	-	-	-	MIC	-	-	>12.8 µg/mL
O=CNNS(=O)(=O)c1ccccc1	-	-	-	-	MIC	-	-	>40 µg/mL
O=C(COc1cnccn1)N/N=c1\scc(-c2ccc(O)cc2)n1-c1ccc(Cl)cc1Cl	H37Rv	-	-	-	MIC	-	-	10.8 µg/mL
CCOC(=O)c1c(NC(=O)c2c(F)c(F)c(F)c(F)c2F)sc2c1CCOC2	ATCC 35822	-	-	turbidity	MIC	-	-	0.26 µM
COc1ccc(C2CC(=O)c3ccc(F)cc3O2)cc1	H37Rv	-	-	-	EC50	-	-	>12.5 µg/mL
CC(C)=CCC/C(C)=C/C=N/NC(=N)N	H37Rv	-	-	resazurin	inhibition	-	6.25 µg/mL	69%
CC1COc2c(N3CCN(C)CC3)c(F)cc3c(=O)c(C(=O)O)cn1c23	SMI 1	-	-	BACTEC	MIC	-	-	0.5 µg/mL
CCOC(=O)c1s/c(=N\N=C2/C(=O)Nc3ccccc32)n(-c2ccc(C)cc2)c1C	H37Rv	-	-	-	MIC	-	-	>12.5 µg/mL
Cc1ccccc1Sc1ncnc2nc[nH]c12	H37Rv	-	-	-	inhibition	-	6.25 µg/mL	36%
CCOC(=O)c1c(NC(=O)c2c(F)c(F)c(F)c(F)c2F)sc2c1CCNC2=O	H37Rv	-	katG Y155 truncation mutant	turbidity	EC90	-	-	4.7 µM
CCCCn1c(-c2ccccc2)cs/c1=N\NC(=O)COc1cnccn1	H37Rv	-	-	-	MIC	-	-	9.2 µg/mL
CCN1CCc2c(sc(NC(=O)c3c(F)c(F)c(F)c(F)c3F)c2C(=O)NC)C1	-	-	-	low oxygen	EC50	-	-	1.9 µM
CC(C)Cn1c(-c2ccc(Cl)cc2)cs/c1=N\NC(=O)COc1cnccn1	H37Rv	-	-	-	MIC	-	-	19 µg/mL
C[C@H]1[C@@H]2CC[C@H]3[C@@H](O)[C@@]2(C[C@@H](O)[C@@]2(O)[C@H]1C[C@H](O)C2(C)C)C[C@@]3(C)O	H37Rv	-	-	BACTEC	MIC bound	-	-	>12.5 µg/mL
CCCCCCCCCN1C(=O)CC(SCCNC(=O)c2ccc(CCCC)cc2)C1=O	H37Ra	-	-	-	MIC	-	-	≤20 µg/mL
Cc1ncc([N+](=O)[O-])n1CCNS(=O)(=O)CCCn1ncnc1[N+](=O)[O-]	H37Rv	-	-	resazurin	inhibition	-	6.25 µg/mL	-18%
O=C(COc1ccccc1)N=Nc1c(O)[nH]c2ccccc12	H37Rv	-	-	-	MIC	-	-	>12.5 µg/mL
CC1(C)N=C(N)N=C(N)N1c1ccc(Cl)c(C(F)(F)F)c1.Cl	H37Rv	-	-	BACTEC	inhibition	-	12.5 µg/mL	0%
O=C(COc1cnccn1)N/N=c1\scc(-c2ccccc2)n1-c1ccc(Cl)cc1	H37Rv	-	-	-	MIC	-	-	26 µg/mL
CCCCCCN1C(=O)C=CC1=O	Clinical isolate (isoniazid-resistant)	-	-	-	MIC	-	-	≤20 µg/mL
COc1ccc2nc(-c3ccccc3)cc(NN)c2c1	H37Rv	-	-	-	inhibition	VERO	12.5 µg/mL	99%
C=CCN=C(N=Nc1c(O)[nH]c2ccccc12)SCC(=O)c1ccc([N+](=O)[O-])cc1	H37Rv	-	-	-	MIC	-	-	>12.5 µg/mL
CCOc1ccc2c(N/N=C/c3ccc(N(CC)CC)cc3)ccnc2c1	H37Rv	-	-	-	inhibition	VERO	12.5 µg/mL	100%
Cc1ccc(NC(=O)c2c(N)sc3c2CCCC3)cc1	H37Rv	-	-	resazurin	MIC	-	-	100 µg/mL
N#Cc1c(/N=C/c2cc(Cl)cc(Cl)c2O)sc2c1CCC2	H37Rv	-	-	resazurin	inhibition	-	6.25 µg/mL	-7%
CC(C)(C)c1ccc(CN2CCC3(CC2)C(=O)Nc2ccccc23)cc1	ss18b	-	-	resazurin	EC80	-	-	50 µM
Cc1cccc(Sc2ncccn2)c1	H37Ra	-	-	-	MIC	-	-	>12.8 µg/mL
COc1ccc(Cl)c(/C=N/NC(=O)c2ccccc2Cl)c1Cl	-	-	-	-	MIC	-	-	100 µg/mL
C1=C(c2nc(-c3cccnc3)no2)c2ccccc2C12CCN(CC1CCCO1)CC2	TB377	-	Spiroindene-resistant	turbidity	MIC	-	-	15.5 µM
CC(C)=NNC(=O)CNC(=O)c1ccccc1	-	-	-	-	MIC	-	-	>200 µg/mL
CCOc1ccc2c(N/N=C/c3c(OC)ccc4ccccc34)ccnc2c1	H37Rv	-	-	-	MIC	VERO	-	3.13 µg/mL
O=C(CC(=O)c1cccc([N+](=O)[O-])c1)C(=O)Nc1nc([N+](=O)[O-])cs1	H37Rv	-	-	resazurin	inhibition	-	6.25 µg/mL	-4%
COc1ccc2c(c1)OC(c1ccccc1)CC2=O	H37Rv	-	-	-	EC50	-	-	>12.5 µg/mL
Nc1ccc(C(=O)O)c(F)c1	H37Rv	-	-	BACTEC	inhibition	-	12.5 µg/mL	0%
CCCCCCCCCN1C(=O)CC(C)(SCCO)C1=O	H37Ra	-	-	-	MIC	-	-	≤20 µg/mL
CC(=O)Nc1ccc(/C=N/NC(N)=S)cc1	Isolate D (drug-resistant)	-	-	-	MIC	-	-	20 µg/mL
O=c1[nH][nH]c(=O)c2ncccc12	-	-	-	-	MIC	-	-	>200 µg/mL
NC(=O)C(=CNC(=S)Nc1cccc(C(F)(F)F)c1)C(N)=O	H37Rv	-	-	resazurin	inhibition	-	6.25 µg/mL	-4%
COc1ccc(/C=N/Nc2ccnc3cc(Cl)ccc23)c2ccccc12	H37Rv	-	-	-	MIC	VERO	-	3.13 µg/mL
Cc1ccc(-c2noc(C3=CC4(CCN(CC5CCCO5)CC4)c4ccccc43)n2)cn1	17003	-	Ethambutol-resistant	resazurin	MIC	-	-	1.56 µM
CO[C@H]1/C=C/O[C@@]2(C)Oc3c(C)c(O)c4c(O)c(c5c(c4c3C2=O)NC2(CCN(CC(C)C)CC2)N=5)=NC(=O)/C(C)=C\C=C\[C@H](C)[C@H](O)[C@@H](C)[C@@H](O)[C@@H](C)[C@H](OC(C)=O)[C@@H]1C	2257 (rifampicin-susceptible)	-	-	-	MIC	-	-	0.062 µg/mL
O=c1cc(-c2ccc(O)cc2-c2c(O)cc3oc(-c4ccc(O)cc4)cc(=O)c3c2O)oc2cc(O)cc(O)c12	H37Rv	-	-	-	EC50	-	-	>12.5 µg/mL
CN(c1ccccc1)S(=O)(=O)c1cccc([N+](=O)[O-])c1	H37Rv	-	-	resazurin	MIC bound	-	-	>6.25 µg/mL
N#Cc1c(NC(=O)c2c(F)c(F)c(F)c(F)c2F)sc2c1CCOC2	-	-	-	low oxygen	EC50	-	-	2.2 µM
Clc1nc(Sc2ccncc2)c2[nH]cnc2n1	H37Rv	-	-	-	inhibition	-	6.25 µg/mL	45%
O=C(O)C(SC1=NNC2(C(=O)N1)c1ccccc1-c1ccccc12)SC1=NNC2(C(=O)N1)c1ccccc1-c1ccccc12	H37Rv	-	-	BACTEC	inhibition	-	12.5 µg/mL	39%
CC(C)(C)c1ccc(CN2CCC3(CC2)C(=O)N(CC2CC2)c2ccccc23)cc1	H37Rv	-	-	turbidity	MIC	-	-	0.8 µM
CN[C@@H]1[C@H](O[C@H]2[C@H](O[C@H]3[C@H](O)[C@@H](O)[C@H](N=C(N)N)[C@@H](O)[C@@H]3N=C(N)N)O[C@@H](C)[C@]2(O)C=O)O[C@@H](CO)[C@H](O)[C@H]1O	Isolate 9	-	-	-	MIC	-	-	8 µg/mL
O=C(/C=C/c1cccnc1)c1ccc(F)cc1	H37Rv	-	-	-	EC50	-	-	<12.5 µg/mL
CC(C)CNC(=S)NNC(=O)COc1cnccn1	H37Rv	-	-	-	MIC	-	-	51 µg/mL
Nc1cc(N)c2[nH]c(=O)c3ccccc3c2c1	H37Rv	-	-	BACTEC	inhibition	-	12.5 µg/mL	35%
COc1ccc(-c2noc(C3=CC4(CCN(CC5CCCO5)CC4)c4ccccc43)n2)cc1	TB333	-	Spiroindene-resistant	turbidity	MIC	-	-	3 µM
CC1=CC[C@@H](Br)C(C)(C)[C@]12CC[C@]1(C)O[C@@H]1C2	H37Rv	-	-	BACTEC	inhibition	-	12.5 µg/mL	19%
CCN=c1cc2n(-c3ccc(C(F)(F)F)cc3)c3ccccc3nc-2cc1Nc1ccc(C(F)(F)F)cc1	14	multidrug-resistant	-	-	MIC	-	-	≤0.06 µg/mL
CC[C@@H](CO)NCCN[C@@H](CC)CO	MDR21	-	-	broth dilution / resazurin	MIC	-	-	8 µg/mL
CCOC(=O)c1c(NC(=O)c2ccccc2)sc2c1CCCC2	H37Rv	-	-	resazurin	MIC	-	-	>200 µg/mL
COc1cc(N=Nc2ccc(C(=O)N(C)C)cc2)c(C)cc1N	H37Rv	-	-	BACTEC	inhibition	-	12.5 µg/mL	13%
COc1ccc(/C=C/C(=O)c2c(O)cccc2OC)cc1	H37Rv	-	-	-	inhibition	-	12.5 µg/mL	75%
Cc1ccc(NCC(=O)NN)cc1	H37Rv	-	-	BACTEC	MIC	-	-	≥12.5 µg/mL
Cc1cc(NN)c2c(Cl)cc(Cl)cc2n1	H37Rv	-	-	-	inhibition	VERO	12.5 µg/mL	87%
Cc1ccccc1CSc1nc(=O)[nH]c2nc[nH]c12	H37Rv	-	-	-	inhibition	-	6.25 µg/mL	0%
C[N+](C)(C)CC(=O)N/N=C/c1oc(-c2cccc([N+](=O)[O-])c2)c(-c2cccc([N+](=O)[O-])c2)c1[N+](=O)[O-].[Cl-]	H37Rv	-	-	BACTEC	inhibition	-	12.5 µg/mL	-16%
CCCCCCCC/C=C\CCCCCCC/C=N/NC(=O)c1ccccc1Cl	-	-	-	-	MIC	-	-	100 µg/mL
C=CCSS/C=C/CS(=O)CC=C	H37Rv	-	-	BACTEC	MIC	-	-	≥12.5 µg/mL
CO[C@H]1/C=C/O[C@@]2(C)Oc3c(C)c(O)c4c(O)c(c(/C=N/N5CCN(C6CCCC6)CC5)c(O)c4c3C2=O)NC(=O)/C(C)=C\C=C\[C@H](C)[C@H](O)[C@@H](C)[C@@H](O)[C@@H](C)[C@H](O)[C@@H]1C	Isolate 900201 drug-susceptible	-	-	-	MIC	-	-	0.25 µg/mL
C/C=N/NC(=O)c1ccccc1Cl	-	-	-	-	MIC	-	-	40 µg/mL
CC1COc2c(N3CCN(C)CC3)c(F)cc3c(=O)c(C(=O)O)cn1c23	912253	-	Isoniazid-resistant	resazurin	MIC	-	-	0.14 µM
COc1ccc(C(=O)N/N=C/c2ccco2)cc1	-	-	-	-	MIC	-	-	10 µg/mL
O=C1C[C@@H](c2ccc(O)cc2)Oc2c1c(O)cc(O[C@@H]1O[C@H](CO)[C@@H](O)[C@H](O)[C@H]1O)c2[C@H]1C(=O)c2c(O)cc(O)cc2O[C@@H]1c1ccc(O)cc1	H37Rv	-	-	-	EC50	-	-	>12.5 µg/mL
COc1cccc(/C=N/NC(=O)c2ccccc2Cl)c1O	-	-	-	-	MIC	-	-	200 µg/mL
NC(=O)c1cnccn1	CDC72 niacin-positive	-	-	-	MIC	-	-	8 µg/mL
NNC(=O)c1ccncc1	Isolate 1	-	-	-	MIC	-	-	>32 µg/mL
COc1cc2c3c(c1)-c1c(ccc(OC)c1Oc1nnnn1-c1ccccc1)CC3N(C)CC2	H37Rv	-	-	BACTEC	inhibition	-	12.5 µg/mL	70%
CO[C@H]1/C=C/O[C@@]2(C)Oc3c(C)c(O)c4c(O)c(c(/C=N/N5CCN(C)CC5)c(O)c4c3C2=O)NC(=O)/C(C)=C\C=C\[C@H](C)[C@H](O)[C@@H](C)[C@@H](O)[C@@H](C)[C@H](OC(C)=O)[C@@H]1C	Isolate 1	-	-	-	MIC	-	-	16 µg/mL
CCNC(=O)c1c(NC(=O)c2c(F)c(F)c(F)c(F)c2F)sc2c1CCN(CC)C2	H37Rv	-	rpoB S522L mutant	turbidity	EC90	-	-	9.3 µM
CC(C)n1c(-c2ccc(O)cc2)cs/c1=N\NC(=O)COc1cnccn1	H37Rv	-	-	-	MIC	-	-	8.4 µg/mL
Cc1cccc(OCC(=O)N=Nc2c(O)n(CN3CCOCC3)c3ccccc23)c1	H37Rv	-	-	-	MIC	-	-	>12.5 µg/mL
O=C1CC(c2ccccc2)Oc2cc(Br)ccc21	-	-	-	-	EC50	-	-	>12.5 µg/mL
O=c1nc(SCc2ccc(F)cc2)c2[nH]cnc2[nH]1	H37Rv	-	-	-	MIC90	-	-	>6.25 µg/mL
CCCCCCCCCN1C(=O)CC(SCCNC(=O)c2ccc(C(C)(C)C)cc2)C1=O	H37Rv	-	-	-	MIC	-	-	≤20 µg/mL
Cn1cc(NC(=O)c2cc(NC(=O)CCCCCCCC(=O)Nc3cc(C(=O)Nc4cc(C(=O)NCCC(N)=[NH2+])n(C)c4)n(C)c3)cn2C)cc1C(=O)NCCC(N)=[NH2+]	H37Rv	-	-	-	MIC	VERO	-	1.6 µg/mL
CCN1CCc2c(sc(NC(=O)c3c(F)c(F)c(F)c(F)c3F)c2C#N)C1	H37Rv	-	rpoB S522L mutant	turbidity	EC50	-	-	7.2 µM
COc1cc(C(C2=C(O)c3ccccc3C(=O)C2=O)C2=C(O)c3ccccc3C(=O)C2=O)cc(OC)c1OC	H37Rv	-	-	BACTEC	inhibition	-	12.8 µg/mL	12%
COc1ccc2c(c1)OC(c1cccc([N+](=O)[O-])c1)CC2=O	H37Rv	-	-	-	inhibition	-	12.5 µg/mL	0%
CC1(C)CC(NC(=O)c2ccccc2)C(=O)O1	H37Rv	-	-	BACTEC	inhibition	-	12.5 µg/mL	-1%
O=c1[nH][nH]c(=O)c2c([N+](=O)[O-])cccc12	-	-	-	-	MIC	-	-	>200 µg/mL